This is an account of results in paper PMC9603713.

The exact form of at least one protein or probe is not confirmed.

For this data set, the system named is His6-CpxR phosphorylated (CpxR-P). The data set is described as follows: EMSA. To be noted: acetyl phosphate-phosphorylated, 20 mM Tris-HCl pH 7.5, 50 mM KCl, 1 mM DTT, 5% glycerol, 20 min at room temperature, protein details: His6 (pQE80), label: none (ethidium bromide stain), probe letters rebuilt from the primers and the genome.

On to “CATGACGGCAGCGGTAACTATGCGCATCATTTGCTCCCAAAATCTTTCTGTCGCGATTCAACGATAGAGAGTTTACGATTCAGGCTGCAAACATGCGTCAGGGGGTGTAAAACAACGTAAAGTCATGGATTAGCGACGTCTGATGACGTAATTTCTGCCTCGGAGGTATTTAAACAATGAATAAAATCCTGTTAGTTGATGATGACCGAGAGCTGACTTCCCTATTAAAGGAGCTGCTCGAGATGGAAGGCTTCAACGTGATTGTTGCCCACGATGGGGAACAGGCGCTTGATCTTCTGGACGACAGCATTGATTTACTTTTGCTTGACGTAATGATGCCGAAGAAAAATGGTATCGACACATTAAAAGCACTTCGCCAGACACACCAGACGCCTGTCATTATGTTGACGGCGCGCGGCAGTGAACTTGATCGCGTTCTCGGCCTTGAGCTGGGCGCAGATGACTATCTCCCGAAACCGTTTAATGATCGTGAGCTGGTGGCACGTATTCGCGCGATCCTGCGCCGTTCGCACTGGAGCGAGCAACAGCAAAAC (double strand) [cpxP regulatory region]”, for which the binding result (positive control, recombinant …) was “binds”. On to “TTAATAAAAATAAAAAAGTTAGCCTGATTACTAAAGATGTTTGCAGCGTATTCTTGAGATTGAGCAAATTCATAATGCTTCCCTCCAGTTGCCTGTTGCAAAATCTTTGGCACTTGATCACTATCGCAGTACATATAGTTTCATCAGAAGATTAATCGATGGTGTTATCATTAGGAAGATAAATTTCTTCATATATAACCCAGTCGATGACTACAATTACTTTTTAATAAGATGGCGATGTAAAAACATCGTAACAGTTTATTTAATAAATAATTTTTCAAATTGTAAGTTTTTA (double strand) [ssrAB -55/+240]”, for which, for the setting “2.0 uM, recombinant protein”, the binding result is recorded as “binds”. With “TTCGGCCCTGATATCCTGAATTAATGGAATGCCTTTTAAAACTGCCAGCATGAATCCCTCCTCAGACATAAATGGGAGTTTCTATCAAATTCGCTCACAACCACATCCGTAAAAAGCCTGATTCACATTTATTTCGACTATACTCTTCTTGTACAATATCAGGATGCTGTCTACATATACCTTGTCACAGGCGATTCTATCATTCGGATTTTCCGATAAATTCACAATTACATTTTCAGCATTGACATAAAAACTTACAATTTGAAAAATTATTTATTAAATAAACTGTTACGATGTTTTTACATCGCCATCTTATTAAAAAGTAATTGTAGTCATCGACTGGGTTATATATGAAGAAATTTATCTTCCTAATGATAACACCATCGATTAATCTTCTGATGAAACTATATGTACTGCGATAGTGATCAAGTGCCAAAGATTTTGCAACAGGCAACTGGAGGGAAGCATTATGAATTTGCTCAATCTCAAGAATACGCTGCAAACATCTTTAGTAATCAGGCTAACTTTTTTATTTTTATTAACAACAATAATTATTTGGCTGCTATCTGTGCTTACCGCAGCTTATATATCAATGGTTCAGAAACGGCAGCATATAATAGAGGATTTATCCGTTCTATCCGAGATGAATATTGTACTAAGCAATCAACGGTTTGAAGAAGCTGAACGTGACGCTAAAAATTTAATGTATCAATGCTCATTAGCGACTGAGATTCATCATAACGATATTTTCCCTGAGGTGAGCCGGCATCTATCTGTCGG (double strand) [ssrAB -302/+478]”, the binding result (shift at 1.0 and 2.0 uM, recombinant protein) is reported as “binds”.
